Where a name gives a salt, the structure may show the parent alone.
Test system: hepatitis B surface antigen
Assay: Adsorption (complexation) of antigen to the immunoadjuvant

CCCCCCCCCCCCCCCCCCOC(=O)C(N)Cc1ccc(O)cc1 (stereo not drawn) [Octadecyl Tyrosine, octadecyl tyrosine hydrochloride]
% Adsorbed Antigen (10 µg octadecyl tyrosine): 53%
% Adsorbed Antigen (50 µg octadecyl tyrosine): 60%
% Adsorbed Antigen (100 µg octadecyl tyrosine): 70%
